Measured values from several laboratories, pooled; numbers as filed in NIAID ChemDB.

All rows: tests on isolated targets; agent: Hepatitis C virus; protein: Nonstructural protein 5B; read-out: IC50

a–b is a range or a potency band. ICn: concentration for n% inhibition. Rows are shuffled and stem from different studies. Blank or dashed fields: not listed here.

SMILES | changes | method | strain | result
O=C(O)c1ccc(-c2ccc(C=C3SC(=S)N(c4ccc(C(=O)O)cc4)C3=O)o2)cc1 | - | - | - | ≤1 µM
Cc1cc(SC2=C(O)CC(CCc3ccc(O)cc3)(C3CCCC3)OC2=O)c(C(C)(C)C)cc1C(N)=O | - | - | - | 1–10 µM
COc1cc2c(=O)c(C(=O)c3ccc(C)cc3)cn(Cc3ccc(Cl)cc3)c2cc1OC | - | scintillation proximity / radiometric | WILD TYPE | 1.15 µM
O=C(Nc1ccc2[nH]ncc2c1)c1cc(NCCN2CCCC2)c(F)cc1F | - | - | - | 1–10 µg/mL
Cc1ccc(F)cc1COc1cc(C(=O)O)nn1CC(=O)N[C@H]1CCCC[C@@H]1OCc1ccccc1 | - | - | - | 3.1 µM
O=C(Nc1ccc2[nH]ncc2c1)c1cc(NCCCn2ccnc2)c(F)cc1F | - | - | - | 1–10 µg/mL
COc1nc(NCCN2CCOCC2)nc(Nc2ccc3[nH]ncc3c2)n1 | - | - | - | >10 µg/mL
COc1cc(OC)c(CCC2(C3CCCC3)CC(O)=C(Sc3nc(N)c4cn[nH]c4n3)C(=O)O2)cc1Cl | - | - | - | <1 µM
O=C(O)CCN1C(=O)C(=Cc2ccc(N3C=Cc4ccccc4C3)o2)SC1=S | - | - | - | ≤1 µM
Nc1nc(=O)n([C@@H]2CO[C@H](COP(=O)(O)OP(=O)(O)OP(=O)(O)O)O2)cc1F | - | - | - | 16 µM
COc1nc(Nc2ccc3[nH]ncc3c2)nc(N2CCC(O)CC2)n1 | - | - | - | >10 µg/mL
COc1cc(O)c2c(c1)oc(=O)c1c3cc(O)c(O)cc3oc21 | - | - | NS5B | 36.1 µM
O=C1CC(=O)OC(CCc2ccc(OCC3CC3)c(F)c2)(C2CCCC2)C1 | - | - | - | 1–10 µM
COc1c(-c2ccc3cc(NS(C)(=O)=O)ccc3c2)cc(-n2ccc(=O)[nH]c2=O)cc1C(C)(C)C | - | nucleotide incorporation | GT 1a#2 | 0.0042 µM
CCOC1=CC(=O)OC(CCC#Cc2cccc(O)c2)(C2CCCC2)C1 | - | - | - | >50 µM
COc1nc(Nc2ccc3cn[nH]c3c2)nc(NN2CCOCC2)n1 | - | - | - | 1–10 µg/mL
Cc1ccc(-c2ccc(C=C3SC(=S)N(c4ccc(C(=O)O)cc4)C3=O)o2)s1 | - | - | - | ≤1 µM
COc1ccc2c(c1)C[C@@H]1C[C@]1(C(=O)N1C[C@H]3CC[C@@H](C1)CN(S(=O)(=O)C(C)C)C3)Cn1c-2c(C2CCCCC2)c2ccc(C(=O)NS(=O)(=O)C(C)C)cc21 | - | nucleotide incorporation | 1b | 0.004 µM
COc1ccccc1CCC1(C2CCCC2)CC(=O)CC(=O)O1 | - | - | - | 10–50 µM
CC(C)(C)COc1cc(C(=O)O)nn1CC(=O)N[C@H]1CCCC[C@@H]1OCC1CCCCC1 | - | - | - | >12.5 µM
NS(=O)(=O)c1ccc(CCNc2cc(C(=O)Nc3ccc4cn[nH]c4c3)c(F)cc2F)cc1 | - | - | - | 1–10 µg/mL
COc1ccc(CCC2(C3CCCC3)CC(O)=C(Sc3nc4nc[nH]c4c(=O)[nH]3)C(=O)O2)cc1 | - | - | - | <1 µM
CNC(=O)CN1CCN(c2nc(Nc3ccc4cn[nH]c4c3)nc(OC)n2)CC1 | - | - | - | >10 µg/mL
O=C(Nc1ccc2cn[nH]c2c1)c1cc(NCCCn2ccnc2)c(F)cc1F | - | - | - | 0.1–1 µg/mL
COCCNc1nc(Nc2ccc3[nH]ncc3c2)nc(OC)n1 | - | - | - | 0.1–1 µg/mL
N[C@@H](CS)C(=O)N[C@@H](Cc1ccccc1)C(=O)N1CCC[C@H]1C(=O)N[C@@H](Cc1c[nH]c2ccccc12)C(=O)NCC(=O)N[C@@H](CS)C(=O)O | - | - | - | >150 µM
O=C(O)c1ccc(N2C(=O)C(=Cc3ccc(-c4ccccc4C(F)(F)F)o3)SC2=S)cc1 | - | - | - | ≤1 µM
O=C(Nc1ccc2cn[nH]c2c1)c1cc(NCCO)c(F)cc1F | - | - | - | 10 µg/mL
O=C(O)CCN1C(=O)C(=Cc2ccc(-c3ccc(Cl)cc3)o2)SC1=S | - | - | - | ≤1 µM
O=C(Nc1ccc2[nH]ncc2c1)c1cc(NCCO)c(F)cc1F | - | - | - | >10 µg/mL
COc1c(F)cc(CCC2(C3CCCC3)CC(=O)CC(=O)O2)cc1F | - | - | - | 1–10 µM
COc1nc(NCCc2ccccn2)nc(Nc2ccc3[nH]ncc3c2)n1 | - | - | - | 1–10 µg/mL
O=C1CC(CCc2ccccc2)(C2CCCC2)OC(=O)C1Cc1ccccc1 | - | - | - | 10–50 µM
O=C(O)C(=O)/C=C(\O)c1cccc(NS(=O)(=O)c2cc(Cl)c(Cl)cc2Cl)c1 | - | - | - | 0.63 µM
CC(Cc1ccccn1)Nc1cc(C(=O)Nc2ccc3cn[nH]c3c2)c(F)cc1F | - | - | - | >10 µg/mL
CNC(=O)c1c(-c2ccc(F)cc2)oc2cc(-c3c(C)noc3C)c(OCCN3CCOCC3)cc12 | - | - | - | ≤0.5 µM
Cc1ccc(C(=O)O)c(Nc2ccc(N3CCOCC3)cc2)n1 | - | - | - | 0.01–0.1 µg/mL
C[C@@]1(O)[C@H](O)[C@@H](COP(=O)(O)OP(=O)(O)OP(=O)(O)O)O[C@@]1(C#N)n1ccc(=O)[nH]c1=O | - | - | - | 27 µM
C[C@@]1(O)[C@H](O)[C@@H](COP(=O)([O-])OP(=O)([O-])OP(=O)([O-])O)O[C@H]1n1cnc2c(N)nc(N)nc21 | S282T | nucleotide incorporation | GT1b | 3.6 µM

For reference, 4 entries again:

SMILES,changes,method,strain,result
COc1cc(O)c2c(c1)oc(=O)c1c3cc(O)c(O)cc3oc21,-,-,NS5B,36.1 µM
COc1nc(NCCc2ccccn2)nc(Nc2ccc3[nH]ncc3c2)n1,-,-,-,1–10 µg/mL
O=C(O)CCN1C(=O)C(=Cc2ccc(N3C=Cc4ccccc4C3)o2)SC1=S,-,-,-,≤1 µM
Cc1ccc(-c2ccc(C=C3SC(=S)N(c4ccc(C(=O)O)cc4)C3=O)o2)s1,-,-,-,≤1 µM